The source of these data is patent publication US9675592B2, “Methods and compositions for bacteria infections” (priority 2013, dated 2017).

By UniProt entry, the sequences of proteins in these tests, tags left out. Where a name states a change or a piece, a line headed by the entry shows the natural chain unless it says otherwise.
UniProt Q81ZH5: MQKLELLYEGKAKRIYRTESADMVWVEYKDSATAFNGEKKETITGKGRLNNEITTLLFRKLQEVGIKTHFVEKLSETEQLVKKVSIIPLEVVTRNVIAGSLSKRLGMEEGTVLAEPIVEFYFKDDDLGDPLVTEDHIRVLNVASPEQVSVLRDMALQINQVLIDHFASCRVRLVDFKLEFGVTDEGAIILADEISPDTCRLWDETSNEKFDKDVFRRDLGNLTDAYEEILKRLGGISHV

The target of this assay is PurC (unrelated protein, control) (Bacillus anthracis, UniProt Q81ZH5). The assay is classed as binding. Particulars: read-out: KD PurC (control).

As a reminder, the Kd is the equilibrium constant for the complex coming apart. `Cc1cc2c(C(C)C)c(O)c(O)c(C=O)c2c(O)c1-c1c(C)cc2c(C(C)C)c(O)c(O)c(C=O)c2c1O` [Gos, Gossypol, reference compound]: the Kd was above 100 µM.
